Here are results for six compounds from publication PMC10755728, “Inhibitors of the Elastase LasB for the Treatment of Pseudomonas aeruginosa Lung Infections” (ACS Central Science, 2023).

Amino acid sequences for entries named in this document (tags omitted). Residues count along the entry.
UniProt Q02RJ6, 198-498 limits assumed: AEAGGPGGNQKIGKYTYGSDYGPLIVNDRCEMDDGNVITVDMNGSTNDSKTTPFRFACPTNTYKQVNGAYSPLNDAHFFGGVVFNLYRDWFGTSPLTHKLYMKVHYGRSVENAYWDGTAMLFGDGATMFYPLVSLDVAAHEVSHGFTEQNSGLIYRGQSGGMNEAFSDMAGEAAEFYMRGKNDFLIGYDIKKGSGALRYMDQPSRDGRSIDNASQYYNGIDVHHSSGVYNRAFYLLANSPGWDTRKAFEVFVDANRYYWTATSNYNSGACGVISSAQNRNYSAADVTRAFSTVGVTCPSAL

For one data set, the target named is LasB (Pseudomonas aeruginosa, UniProt Q02RJ6). The settings on record: for IC50: read-out: LasB IC50, FRET-based assay; for fold drop in activity compared to the most active compounds of the isobutyl series: vs IC50 ∼ 25 nM.
A further data set deals with P. aeruginosa PA14. The experiment in a line: Bacterial growth inhibition assay. The following applies: 100 µM compound concentration.
Another data set deals with HepG2. The experiment in a line: MTT cytotoxicity assay, HepG2. The settings on record: after 48h at 100 µM.
The test system of the next data set is HEK293. Description: MTT cytotoxicity assay, HEK293. The following applies: after 48h at 100 µM.

As for `CC(C)CC(C(=O)Nc1cnc(Br)nc1)P(=O)(O)O` (stereo not shown), the 50% inhibitory concentration (IC50) on LasB was determined as 380 nM. As to `CCCC(C(=O)Nc1ccc(Cl)c(Cl)c1)P(=O)(O)O` (stereo not shown), on LasB, the IC50 worked out at 2050 nM.

As for `CC(C)CC(C(=O)Nc1ccc(Cl)nn1)P(=O)(O)O` (stereo not shown), the “fold drop in activity compared to the most active compounds of the isobutyl series” value on LasB was 800 fold. `COC(=O)c1ccc(NC(=O)C(CC(C)C)P(=O)(O)O)cn1` (stereo not shown): on LasB, the half-inhibitory concentration (IC50) worked out at 190 nM and the “fold drop in activity compared to the most active compounds of the isobutyl series” value is on record as 8 fold. For `CC(C)CC(C(=O)Nc1ccc(S(=O)(=O)C(F)(F)F)cc1)P(=O)(O)O` (stereo not shown), the half-maximal inhibitory concentration (IC50) at LasB worked out at 27.7 nM. The “Percent (%) growth inhibition of P. aeruginosa PA14” value in the data set on P. aeruginosa PA14 is listed as < 10%. In addition, the “% growth inhibition HepG2” value in the data set with HepG2 was found to be 12 ± 6%. Besides, the “% growth inhibition HEK293” value with HEK293 stood at 23 ± 0%.

With `CC(C)CC(C(=O)Nc1cnc(Cl)nc1)P(=O)(O)O` (stereo not shown), on LasB, the IC50 amounted to 500 nM.
